From PubChem BioAssay AID1822 (The Scripps Research Institute Molecular Screening Center, 2009)
The list shows a part of the results, in another mix than the full data. Activity calls are given as the source filed them.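 The calls were made as follows: active = inhibition above the campaign mean inhibition over all tested compounds plus 3 SD (cut at about 28% in these data); inactive = the rest.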

These compounds were tested on M18 aspartyl aminopeptidase (Plasmodium falciparum 3D7) (assay: inhibition of P. falciparum M18 aminopeptidase – biochemical, QFRET, recombinant enzyme, primary screen (AID 1822;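 also: 0% = plate median of test compound wells and 100% = 2 mM ZnCl2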)). Conditions: recombinant PfM18AAP, H-Glu-NHMec fluorogenic cleavage; at 7.35 µM; hits give high values.

Row | Structure (SMILES) | inhibition
1 | CC(C)(C)c1ccc(OP(C)(=O)Nc2ccc(SC(F)(F)F)cc2)cc1 (configuration not stated) | inactive: 3.89%
2 | Cc1cccc(C)c1OP(C)(N)=O (configuration not stated) | inactive: 0.26%
3 | O=[N+]([O-])c1ccc2c(c1)C=Nc1ccccc1O2 | inactive: 5.07%
4 | COc1ccccc1OP(C)(=O)Nc1cc(Cl)ccc1C (configuration not stated) | inactive: -10.5%
5 | COc1ccc(OP(C)(=O)Nc2cccc(F)c2)cc1 (configuration not stated) | inactive: 0.6%
6 | Cc1cc(C)cc(OP(C)(N)=O)c1 (configuration not stated) | inactive: -2.98%
7 | CCOC(=O)c1ccc(NP(C)(=O)Oc2ccccc2)cc1 (configuration not stated) | inactive: -1.7%
8 | COc1ccccc1OP(C)(=O)Nc1ccc(C)cc1 (configuration not stated) | inactive: -2.99%
9 | Cc1ccc(NP(C)(=O)Oc2ccccc2)c(C)c1 (configuration not stated) | inactive: -1.39%
10 | CCN(CC)CCCOC(=O)C(O)(c1ccccc1)c1ccccc1 | inactive: 1.76%
11 | CCc1ccc(OP(C)(=O)N2CCN(c3ccc([N+](=O)[O-])cc3)CC2)cc1 (configuration not stated) | inactive: -7.36%
12 | CP(=O)(NC(=O)Nc1ccccc1)Oc1ccccc1 (configuration not stated) | inactive: 2.02%
13 | Cc1cc(C)cc(OP(C)(=O)Nc2ccc(SC(F)(F)F)cc2)c1 (configuration not stated) | inactive: -3.02%
14 | CP(=O)(Nc1ccc(SC(F)(F)F)cc1)Oc1ccc(Cl)cc1 (configuration not stated) | inactive: 1.81%
15 | Cc1cccc(C)c1OP(C)(=O)Nc1ccc(SC(F)(F)F)cc1 (configuration not stated) | inactive: -0.06%
16 | CP(=O)(Oc1ccccc1)OC(c1ccccc1)C(F)(F)F (configuration not stated) | inactive: 0.42%
17 | CP(=O)(Nc1ccccn1)Oc1ccc(Cl)cc1 (configuration not stated) | inactive: -1.71%
18 | CCOP(C)(=S)SCC(=O)NC(C)C(=O)O (configuration not stated) | inactive: -10.7%
19 | CCOC(=O)c1ccc(NP(C)(=O)Oc2ccc(OC)cc2)cc1 (configuration not stated) | inactive: 1.21%
20 | COc1ccccc1OP(C)(=O)Nc1ccccc1 (configuration not stated) | inactive: -3.87%
21 | CP(=O)(Nc1ccccc1Br)Oc1ccccc1 (configuration not stated) | inactive: 4.46%
22 | CP(=S)(Nn1cnnc1)Oc1ccccc1 (configuration not stated) | active: 40.9%
